The numbers were not newly measured in patent US20220273637A1, “NOVEL PFAR-INHIBITING COMPOUNDS” (UNIVERSITE DE BRETAGNE OCCIDENTALE (UBO), priority 2019, published 2022), which cites them from elsewhere.

For this data set, the system named is PrP^Sc. Particulars: value from the literature; cited from earlier work.

A word on the IC50: it is the concentration that inhibits the measured activity by half. Regarding `CCN(CC)CCCC(C)Nc1c2ccc(Cl)cc2nc2ccc(OC)cc12` (stereo not shown), the IC50 was 300 nM.
